The source of these data is PMC8498006 (Advances in Redox Research, 2021).

For orientation: pIC50 means −log10 of the IC50, conventionally taken in molar units.

For this assay, the target named is SARS-CoV-2 M^pro (MBP-tagged main protease) (Severe acute respiratory syndrome coronavirus 2, UniProt P0DTD1). Type of assay: biochemical. The note with it: 0.5 µM enzyme, preincubation 37°C 30 min, 10 µM Dabcyl-[…]-Edans 1 h.

pIC50: −log10 of the molar value.

As to myricitrin, the negative-log IC50 (pIC50) was 4.66.
